Measured values from several laboratories, pooled; numbers as filed in NIAID ChemDB.

Shared fields: whole-cell or culture tests; organism: Mycobacterium avium complex; endpoint: MIC

a–b is a range or a potency band. Conditions beyond the fields shown may differ between rows.

structure	strain or isolate	value
CC1(C)N=C(N)N=C(N)N1OCCCOc1cc(Cl)c(Cl)cc1Cl	1408	0.5 µg/mL
Clc1nc(Sc2ccncc2)c2[nH]cnc2n1	NJ211	>12.8 µg/mL
C[C@@H]1CN(c2c(F)c(N)c3c(=O)c(C(=O)O)cn(C4CC4)c3c2F)C[C@H](C)N1	N-259 (HIV-)	0.5 µg/mL
Clc1nc(Sc2ccccn2)c2[nH]cnc2n1	NJ211	>12.8 µg/mL
CC[C@H]1OC(=O)[C@H](C)[C@@H](O[C@H]2C[C@@](C)(OC)[C@@H](OC(C)=O)[C@H](C)O2)[C@H](C)[C@@H](O[C@@H]2O[C@H](C)C[C@H](N(C)C)[C@H]2O)C(C)(O)C[C@@H](C)/C(=N\OCCCCCc2ccccc2)[C@H](C)[C@@H](O)[C@]1(C)O	20092 (clarithromycin-resistant)	3.13 µg/mL
O=c1nc(SCc2ccc(Cl)cc2[N+](=O)[O-])c2[nH]cnc2[nH]1	NJ211	>12.8 µg/mL
COc1ccc(/C(C)=N/NC(N)=S)cc1	108	0.125 µg/mL
COc1ccc(Sc2ccncc2)cc1OC	NJ211	>12.8 µg/mL
CO[C@H]1/C=C/O[C@@]2(C)Oc3c(C)c(O)c4c(=O)c(c5oc6cc(N7CCN(CC(C)C)CC7)cc(=O)c6nc5c4c3=C2O)NC(=O)/C(C)=C\C=C\[C@H](C)[C@H](O)[C@@H](C)[C@@H](O)[C@@H](C)[C@H](OC(C)=O)[C@@H]1C	N-319 (HIV-)	0.0313 µg/mL
CC[C@H]1OC(=O)[C@H](C)[C@@H](O[C@H]2C[C@@](C)(OC)[C@@H](O)[C@H](C)O2)[C@H](C)[C@@H](O[C@@H]2O[C@H](C)C[C@H](N(C)C)[C@H]2O)[C@](C)(OC)C[C@@H](C)C(=O)[C@H](C)[C@@H](O)[C@]1(C)O	20096 (clarithromycin-resistant)	>50 µg/mL
COc1ccccc1CSc1ncccn1	NJ211	>12.8 µg/mL
CCO/N=C1\[C@H](C)CC(C)(O)[C@H](O[C@@H]2O[C@H](C)C[C@H](N(C)C)[C@H]2O)[C@@H](C)[C@H](OC2C[C@@](C)(OC)[C@@H](O)[C@H](C)O2)[C@@H](C)C(=O)O[C@H](CC)[C@@](C)(O)[C@H](O)[C@H]1C	20096 (clarithromycin-resistant)	>50 µg/mL
NNC(=O)c1ccncc1	11005	20–25 µg/mL
CC[C@H]1OC(=O)[C@H](C)[C@@H](OC(C)=O)[C@H](C)[C@@H](O[C@@H]2O[C@H](C)C[C@H](N(C)C)[C@H]2O)C(C)(O)C[C@@H](C)/C(=N\OCCCOc2ccccc2)[C@H](C)[C@@H](O)[C@]1(C)O	20096 (clarithromycin-resistant)	25 µg/mL
NNC(=O)c1ccncc1	N-945 (HIV+)	1 µg/mL
CC[C@H]1OC(=O)[C@H](C)[C@@H](OC(=O)CCc2ccccc2)[C@H](C)[C@@H](O[C@@H]2O[C@H](C)C[C@H](N(C)C)[C@H]2O)C(C)(O)C[C@@H](C)/C(=N\OCCCOc2ccccc2)[C@H](C)[C@@H](O)[C@]1(C)O	20092 (clarithromycin-resistant)	6.25 µg/mL
Nc1ccc(S(=O)(=O)c2ccc(N)cc2)cc1	DW27	64 µg/mL
CC[C@H]1OC(=O)[C@H](C)[C@@H](OC2C[C@@](C)(OC)[C@@H](O)[C@H](C)O2)[C@H](C)[C@@H](O[C@@H]2O[C@H](C)C[C@H](N(C)C)[C@H]2O)C(C)(O)C[C@@H](C)/C(=N\OCCN(C)c2ccccc2)[C@H](C)[C@@H](O)[C@]1(C)O	20092 (clarithromycin-resistant)	25 µg/mL
CO[C@H]1/C=C/O[C@@]2(C)Oc3c(C)c(O)c4c(O)c(c5c(c4c3C2=O)NC2(CCN(CC(C)C)CC2)N=5)=NC(=O)/C(C)=C\C=C\[C@H](C)[C@H](O)[C@@H](C)[C@@H](O)[C@@H](C)[C@H](OC(C)=O)[C@@H]1C	N-976 (HIV+)	0.8 µg/mL
CC1(C)N=C(N)N=C(N)N1OCCCOc1cc(Cl)c(Cl)cc1Cl	1102	4 µg/mL
CC[C@H]1OC(=O)[C@H](C)[C@@H](OC2C[C@@](C)(OC)[C@@H](O)[C@H](C)O2)[C@H](C)[C@@H](O[C@@H]2O[C@H](C)C[C@H](N(C)C)[C@H]2O)C(C)(O)C[C@@H](C)/C(=N\OCCCc2ccccc2)[C@H](C)[C@@H](O)[C@]1(C)O	20039 (clarithromycin-susceptible)	1.56 µg/mL

The last 3 rows once more:

| structure | strain or isolate | value |
|---|---|---|
| CO[C@H]1/C=C/O[C@@]2(C)Oc3c(C)c(O)c4c(O)c(c5c(c4c3C2=O)NC2(CCN(CC(C)C)CC2)N=5)=NC(=O)/C(C)=C\C=C\[C@H](C)[C@H](O)[C@@H](C)[C@@H](O)[C@@H](C)[C@H](OC(C)=O)[C@@H]1C | N-976 (HIV+) | 0.8 µg/mL |
| CC1(C)N=C(N)N=C(N)N1OCCCOc1cc(Cl)c(Cl)cc1Cl | 1102 | 4 µg/mL |
| CC[C@H]1OC(=O)[C@H](C)[C@@H](OC2C[C@@](C)(OC)[C@@H](O)[C@H](C)O2)[C@H](C)[C@@H](O[C@@H]2O[C@H](C)C[C@H](N(C)C)[C@H]2O)C(C)(O)C[C@@H](C)/C(=N\OCCCc2ccccc2)[C@H](C)[C@@H](O)[C@]1(C)O | 20039 (clarithromycin-susceptible) | 1.56 µg/mL |